Test results as given in publication PMC11832194, “Cystatin from Austrelaps superbus snake venom as a model for identifying potential inhibitors of Trypanosoma cruzi cruzain” (The Journal of Venomous Animals and Toxins Including …, 2025).
No end group written: not given here.

Tested on: NCTC clone 929 fibroblasts
Test: In vitro cytotoxicity on fibroblasts (resazurin)
Assay type: cell-based, murine
Settings: NCTC929 cytotoxicity versus T. cruzi epimastigote trypanocidal activity
Experimental: In these experiments, NCTC clone 929 fibroblasts were cultured in a 96-well plate with 180 µL of minimal essential medium (MEM) supplemented with 10% FBS, penicillin and streptomycin antibiotics. About 2 × 10^4 cells per well were cultured and incubated at 37°C for 48 hours in a 5% CO2 environment with different concentrations of synthetic peptides (500-62.5 µM). Then, 20 µL of a resazurin solution was added, reaching a final concentration of 2 mM. The plate was incubated again at 37°C for 4 hours, and absorbance was monitored at 570 and 600 nm using a Synergy H1 multi-mode spectrophotometer (BIOTEK). GraphPad Prism software determined the half-maximal cytotoxic concentration (CC50) (v.6.01). The CC50 of the reference drug benznidazole was also determined to finally determine the selectivity index

Sequence | SI (selectivity index)
KGGLQVVTGAPWK [Pep7] | > 1.28
GGLQVVTGPW [Pep5] | > 1.05
KIPGGQVVTGPWK [Pep8] | > 1.06
